System: Supercoiled plasmid pUC57 DNA
Assay: Cleavage of pUC57 DNA, agarose gel electrophoresis
Assay type: biochemical
Experimental: DNA supercoiling plays a key role in gene expression and genome organization. The agarose gel electrophoresis assay was used to check whether the tested complexes 3a–3c are able to cleave DNA. Supercoiled plasmid pUC57 DNA (4634 bp); Thermo Scientific, ABO Sp. z o.o., Gdansk, Poland), was incubated with tested compounds (100, 200 and 300 µM). Next, loading buffer (1 μL) containing […] bromophenol blue, 0.25% xylene cyanol and 30% glycerol was added to allow the samples to be loaded into 1% w/v agarose gel. Electrophoresis was performed at 75 V in Tris-acetate- EDTA (TAE) buffer. The gel was stained using Midori green advance DNA stain (Genetics, ABO Sp. z o.o., Gdansk, Poland), and visualised under UV light with the BioRad Gel Doc 2000 system using LABWORK software (Hercules, California, USA). All experiments were carried out in triplicate under the same conditions.

Compound: Cc1cc(C)[n+]2n1C(N)=[S+][Ru-]2[Cl].Cc1ccc(C(C)C)cc1.F[P-](F)(F)(F)(F)F [Compound 3a]
- Concentration causing DNA sedimentation: ≥ 200 µM

Source: PMC8781304, “Arene-Ruthenium(II) Complexes with Carbothiamidopyrazoles as a Potential Alternative for Antibiotic Resistance in Human” (Molecules, 2022)
